This note sets out measurements from PubChem BioAssay AID485341 (National Center for Advancing Translational Sciences (NCATS), 2010).

Sequences of proteins named here, by UniProt entry; tags and fusion partners are left off.
UniProt P00811, whole entry: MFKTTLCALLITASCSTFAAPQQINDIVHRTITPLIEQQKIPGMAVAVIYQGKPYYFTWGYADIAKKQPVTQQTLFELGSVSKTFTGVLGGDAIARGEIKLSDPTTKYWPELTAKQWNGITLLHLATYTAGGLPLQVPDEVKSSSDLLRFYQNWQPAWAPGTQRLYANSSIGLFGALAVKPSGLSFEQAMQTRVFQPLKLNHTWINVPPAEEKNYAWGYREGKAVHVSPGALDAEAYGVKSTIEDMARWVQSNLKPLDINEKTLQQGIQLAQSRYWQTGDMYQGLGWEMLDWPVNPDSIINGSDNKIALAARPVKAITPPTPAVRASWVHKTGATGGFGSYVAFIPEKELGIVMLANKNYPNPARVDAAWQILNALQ

Only a part is listed here, and it is no random draw. The source made the active and inactive calls. Calls follow the shape of the dose curve; as a rule, active = well fitted inhibition curve with a large enough effect; inconclusive = small, poorly fitted or top-dose-only effect; inactive = no such curve, though single readings can be large or run the other way. A call without a number means that no potency is given here.
Potency is read from the fitted curve at half-maximal effect.

This assay has as its target Beta-lactamase (Escherichia coli (strain K12)) (UniProt P00811). In words: qHTS Inhibitors of AmpC Beta-Lactamase (assay without detergent). Also: nearly all actives have a fitted effect of over 20% in size. Particulars: AmpC nitrocefin hydrolysis, absorbance 480 nm, 0.0001% Triton; series mostly up to 57.1 µM. Here is the method: NIH Molecular Libraries Probe Production Network [MLPCN] NIH Chemical Genomics Center [NCGC] Assay Provider: Professor Brian Shoichet, UCSF Assay Overview: This aggregation profiling approach exploits the sensitivity of aggregate formation to detergent. Inhibition of b-lactamase is measured in the presence and absence of 0.01% Triton X-100. This particular assay had the prescence of 0.01% Triton X-100. See Pubchem assay "Promiscuous and Specific Inhibitors of AmpC Beta-Lactamase (assay without detergent)" for related screen. Compounds that inhibit only in the absence of detergent are considered likely promiscuous aggregators. A screen of 1,030 compounds was performed in Brian Shoichet's lab in 96-well format. AmpC activity was measured by following the absorbance at 480 nm. Nitrocefin is a chromogenic substrate: while nitrocefin is yellow (lmax 390 nm), the product of its hydrolysis is red (lmax 486 nm, 17,000 M-1). AmpC beta lactamase was provided by Shoichet Lab, UCSF.
Buffer: 20 mM phosphate buffer, pH 7.0 Triton X-100: No Detergent screen: 0.0001%, Detergent screen: 0.01%. Reagents/Controls: Buffer in columns 3 and 4 as negative control (no enzyme). 5.3 nM AmpC in columns 1, 2, 5-48. Titration of UCSF compound 9 control (from 10 mM, then 1:2) pin-transferred to column 2. Column 1 is neutral (100% activity). Assay Steps: Six uL of reagents were dispensed to 1536-well Greiner black clear bottom plates. Compounds and controls (23 nL) were transferred via Kalypsys PinTool. The plates were incubated for 15 min at room temperature, and then 2 uL of 800 uM solution of nitrocefin was added to start the reaction. The plates were immediately transferred to and read every 20 seconds for 4 min on ViewLux (Perkin-Elmer) High-throughput CCD imager using 480 nm absorbance protocol. During dispense, reagent bottles were kept submerged into 4 deg C water bath. Keywords: NIH Roadmap, MLSCN, MLI, MLSMR, qHTS, NCGC, AmpC Beta-Lactamase, Aggregation
A general note: In qHTS, concentration-response curves come from the screen itself.
Regarding `CC1=NCCc2c1[nH]c1ccccc21.O=[N+]([O-])c1cc([N+](=O)[O-])c(O)c([N+](=O)[O-])c1`, the activity change, negative = inhibition result is “inactive”. In the case of `CCOC(=O)c1ccc(NP(C)(=O)Oc2cc(C)cc(C)c2)cc1` (centres undefined), the activity change, negative = inhibition result is “inactive”. Turning to `Cc1cc(C)cc(OP(C)(=O)Nc2ccc(C)cc2C)c1` (centres undefined), the activity change, negative = inhibition entry was “inactive”. On to `COc1ccccc1OP(C)(=O)Nc1cccc(Br)c1` (centres undefined), for which the activity change, negative = inhibition result was “inactive”. For `Cc1ccc(C)c(NP(C)(=O)Oc2ccccc2)c1` (centres undefined), the activity change, negative = inhibition entry is “inactive”. As for `Cc1cc(C)cc(OP(C)(=O)Nc2ccccn2)c1` (centres undefined), the activity change, negative = inhibition entry was “inactive”.

`CP(=O)(Nc1cccc(Br)c1)Oc1ccccc1` (centres undefined): the activity change, negative = inhibition result was “inactive”.

Consider `O=[N+]([O-])c1cc([N+](=O)[O-])c(-n2nnc3ccccc32)c([N+](=O)[O-])c1`, for which the activity change, negative = inhibition is inactive: -11.2% [at 11.4 µM].

Regarding `Cc1nc2ccc3ccccc3c2s1.O=[N+]([O-])c1cc([N+](=O)[O-])c(O)c([N+](=O)[O-])c1`, the activity change, negative = inhibition entry was “inactive”. The same measure, in the same setting: next, `CC1=C2N=C(C=C3N=C(C(C)=C4[N-][C@@](C)([C@@H]5N=C1[C@](C)(CCC(=O)NC[C@@H](C)OP(=O)([O-])O[C@H]1[C@@H](O)[C@@H](n6cnc7cc(C)c(C)cc76)O[C@@H]1CO)[C@H]5CC(N)=O)[C@@](C)(CC(N)=O)[C@@H]4CCC(N)=O)[C@@](C)(CC(N)=O)[C@@H]3CCC(N)=O)C(C)(C)[C@@H]2CCC(N)=O.[C-]#N.[Co+3]`: “inactive”; `O=[N+]([O-])c1cc([N+](=O)[O-])c(Nc2nnnn2CCO)c([N+](=O)[O-])c1`: “inactive”. With `CCCOc1ccc(NP(C)(=O)Oc2ccc(Cl)cc2)cc1` (centres undefined), the activity change, negative = inhibition is inactive: -10.4% [at 11.4 µM]. In the case of `CP(=O)(Nc1ccc(SC(F)(F)F)cc1)Oc1ccccc1` (centres undefined), the activity change, negative = inhibition result was “inactive”. In the case of `COc1ccccc1OP(C)(=O)Nc1c(C)cccc1C` (centres undefined), the activity change, negative = inhibition result is “inactive”. Regarding `CN1CCCCC1COC(=O)C1(O)c2ccccc2CCc2ccccc21` (centres undefined), the activity change, negative = inhibition result was “inactive”. The same measure, in the same setting: next, `CP(=O)(Nc1ccccc1Br)Oc1ccccc1` (centres undefined): “inactive”. The same measure, in the same setting: under `COc1ccccc1OP(C)(=O)Nc1ccccc1` (centres undefined) stands “inactive”; under `CP(=S)(Nn1cnnc1)Oc1ccccc1` (centres undefined), “inactive”; under `CP(=O)(NC(=O)Nc1ccccc1)Oc1ccccc1` (centres undefined), “inactive”. Turning to `CCc1ccc(OP(C)(=O)N2CCN(c3ccc([N+](=O)[O-])cc3)CC2)cc1` (centres undefined), the activity change, negative = inhibition result is “inactive”. Regarding `Cc1cc(C)cc(OP(C)(=O)Nc2ccc(SC(F)(F)F)cc2)c1` (centres undefined), the activity change, negative = inhibition entry was “inactive”. With `Cc1cccc(C)c1OP(C)(=O)Nc1ccc(SC(F)(F)F)cc1` (centres undefined), the activity change, negative = inhibition entry was “inactive”.

Consider `CP(=O)(Nc1ccc(SC(F)(F)F)cc1)Oc1ccc(Cl)cc1` (centres undefined), for which the activity change, negative = inhibition entry is “inactive”. With `CP(=O)(Oc1ccccc1)OC(c1ccccc1)C(F)(F)F` (centres undefined), the activity change, negative = inhibition result is “inactive”.

With `CCOC(=O)c1ccc(NP(C)(=O)Oc2ccc(OC)cc2)cc1` (centres undefined), the activity change, negative = inhibition entry is “inactive”. Regarding `CCOP(C)(=S)SCC(=O)NC(C)C(=O)O` (centres undefined), the activity change, negative = inhibition result is “inactive”.

For `CCN(CC)CCCOC(=O)C(O)(c1ccccc1)c1ccccc1`, the activity change, negative = inhibition entry is “inactive”. Still for that read-out and setting: under `O=[N+]([O-])c1ccc2c(c1)C=Nc1ccccc1O2` stands “inactive”. With `CC(C)(C)c1ccc(OP(C)(=O)Nc2ccc(SC(F)(F)F)cc2)cc1` (centres undefined), the activity change, negative = inhibition entry was “inactive”. Consider `Cc1cccc(C)c1OP(C)(N)=O` (centres undefined), for which the activity change, negative = inhibition result was “inactive”. Turning to `O=[N+]([O-])c1cc([N+](=O)[O-])c(Nc2cccnc2)c([N+](=O)[O-])c1`, the activity change, negative = inhibition result is “inactive”. As for `Cc1cc(C)cc(OP(C)(N)=O)c1` (centres undefined), the activity change, negative = inhibition result was “inactive”.

On to `COc1ccccc1OP(C)(=O)Nc1cc(Cl)ccc1C` (centres undefined), for which the activity change, negative = inhibition entry is “inactive”. On the same count and under the same terms, next, `COc1ccc(OP(C)(=O)Nc2cccc(F)c2)cc1` (centres undefined): “inactive”; `COc1ccccc1OP(C)(=O)Nc1ccc(C)cc1` (centres undefined): “inactive”. Still for that read-out and setting: under `Cc1ccc(NP(C)(=O)Oc2ccccc2)c(C)c1` (centres undefined) stands “inactive”; under `CCOC(=O)c1ccc(NP(C)(=O)Oc2ccccc2)cc1` (centres undefined), “inactive”. Same read-out and setting: next, `COc1ccccc1OP(C)(=O)Nc1ccc(C)c(C)c1` (centres undefined): “inactive”; `COc1ccc(OP(C)(=O)Nc2ccccc2Br)cc1` (centres undefined): “inactive”; `Cc1cc(C)cc(OP(C)(=O)Nc2cccc(C(F)(F)F)c2)c1` (centres undefined): “inactive”. Take `CP(=O)(Nc1ccc(Cl)cc1Cl)Oc1ccccc1` (centres undefined): the activity change, negative = inhibition entry is “inactive”. Consider `CP(=O)(OCCOc1ccccc1)OCCOc1ccccc1`, for which the activity change, negative = inhibition entry was “inactive”. As to `Cc1nc2ccc3ccccc3c2o1.O=[N+]([O-])c1cc([N+](=O)[O-])c(O)c([N+](=O)[O-])c1`, the activity change, negative = inhibition result is “inactive”. As to `COc1ccc(OP(C)(=O)Nc2ccccn2)cc1` (centres undefined), the activity change, negative = inhibition result is “inactive”.

Consider `CN(C)CCOC(=O)C(O)(c1ccccc1)C1CCCC1` (centres undefined), for which the activity change, negative = inhibition result was “inactive”. For `COc1ccccc1OP(C)(=O)Nc1ccc(Br)cc1` (centres undefined), the activity change, negative = inhibition entry is “inactive”. `CP(=O)(Nc1ccccn1)Oc1ccccc1` (centres undefined): the activity change, negative = inhibition entry was “inactive”. On the same count and under the same terms, next, `COc1ccccc1OP(C)(=O)Nc1ccc(C)cc1C` (centres undefined): “inactive”; `CCc1ccc(OP(C)(=O)O)cc1`: “inactive”; `Cc1c(NP(C)(=O)Oc2ccc(C(C)C)cc2)c(=O)n(-c2ccccc2)n1C` (centres undefined): “inactive”. Same read-out and setting: next, `O=[N+]([O-])c1cc([N+](=O)[O-])c(Nc2ccccn2)c([N+](=O)[O-])c1`: “inactive”; `COc1ccccc1OP(C)(=O)Nc1c(C)n(C)n(-c2ccccc2)c1=O` (centres undefined): “inactive”. For the compound `O=C(OCCCN1CCCC1)C(O)(c1ccccc1)C1CCCCC1` (centres undefined), the activity change, negative = inhibition entry is “inactive”. For the compound `CP(=O)(Oc1ccccc1)N1CCOC1=O` (centres undefined), the activity change, negative = inhibition result is “inactive”. Take `CCc1ccc(OP(C)(=O)Nc2cccnc2)cc1` (centres undefined): the activity change, negative = inhibition result was “inactive”. As for `CCN(CC)CC(O)COC(=O)C(O)(c1ccccc1)C1CCCCC1` (centres undefined), the activity change, negative = inhibition entry was “inactive”. Consider `COc1ccc(OP(C)(=O)Nc2ccc(Br)cc2)cc1` (centres undefined), for which the activity change, negative = inhibition entry is “inactive”.

For the compound `CN(C)C(=O)c1c([N+](=O)[O-])cc([N+](=O)[O-])cc1[N+](=O)[O-]`, the activity change, negative = inhibition result is “inactive”. `COc1ccccc1OP(C)(=O)Nc1ccccc1Br` (centres undefined): the activity change, negative = inhibition entry is “inactive”.

In the case of `CC(C)(C)c1ccc(OP(C)(=O)O)cc1`, the activity change, negative = inhibition result is “inactive”. Consider `CP(=O)(Nc1ccc(Cl)cc1)Oc1ccc(F)cc1` (centres undefined), for which the activity change, negative = inhibition result was “inactive”. Turning to `CCOC(=O)c1ccc(NP(C)(=O)Oc2ccc(Cl)cc2)cc1` (centres undefined), the activity change, negative = inhibition result was “inactive”. `CP(=O)(OC12CC3CC(CC(C3)C1)C2)OC12CC3CC(CC(C3)C1)C2`: the activity change, negative = inhibition result is “inactive”.

In the case of `CN(C)CCOC(=O)C(O)(c1ccccc1)C1CCCCC1` (centres undefined), the Potency was active: 158 nM. Take `COc1ccc(NP(C)(=O)Oc2ccccc2OC)cc1` (centres undefined): the activity change, negative = inhibition result is “inactive”. As to `COc1ccc(OP(C)(=O)Nc2cccc(Br)c2)cc1` (centres undefined), the activity change, negative = inhibition result is “inactive”. Same read-out and setting: next, `O=[N+]([O-])c1ccc(OP2(=O)COCCO2)cc1` (centres undefined): “inactive”; `Cc1cc(-c2cccc3ccccc23)c(C)cn1.O=[N+]([O-])c1cc([N+](=O)[O-])c(O)c([N+](=O)[O-])c1`: “inactive”. `CP(=O)(Nc1ccc(SC(F)(F)F)cc1)Oc1ccc(F)cc1` (centres undefined): the activity change, negative = inhibition entry was “inactive”.

Take `Cc1ccccc1NP(C)(=O)Nc1ccccc1C`: the activity change, negative = inhibition result was “inactive”. On to `CP(=O)(Nc1ccc2c(c1)OCCO2)Oc1ccccc1` (centres undefined), for which the activity change, negative = inhibition entry was “inactive”. The same measure, in the same setting: next, `CP(=O)(Nc1ccccc1F)Oc1ccccc1` (centres undefined): “inactive”; `CC(C)c1ccc(OP(C)(=O)Nc2ccc(SC(F)(F)F)cc2)cc1` (centres undefined): “inactive”; `O=C(OCCN1CCN(CCOCc2ccccc2)CC1)C(O)(c1ccccc1)c1ccccc1`: “inactive”. On the same count and under the same terms, next, `CCOC(=O)c1ccc(NP(C)(=O)Oc2ccc(F)cc2)cc1` (centres undefined): “inactive”.

Consider `COc1ccc(OP(C)(=O)Nc2ccc(SC(F)(F)F)cc2)cc1` (centres undefined), for which the activity change, negative = inhibition entry is “inactive”.

As to `CP(=O)(Nc1ccccc1)Oc1ccc(F)cc1` (centres undefined), the activity change, negative = inhibition entry was “inactive”. `CCCCCOc1ccc(NP(C)(=O)Oc2ccc(Cl)cc2Cl)cc1` (centres undefined): the activity change, negative = inhibition entry was “inactive”. For the compound `CCN(CC)CCCOC(=O)C(O)(c1ccccc1)C1CCCCC1` (centres undefined), the activity change, negative = inhibition entry was “inactive”.
